Reference: patent EP1826280A2 (priority 1992, dated 1994)
Like-named read-outs stand apart in the source and are kept apart here.

Columns and labels:
HT29 [1] = details: 5 minute exposure
HT29 [2] = assay: MTT metabolic activity after 24 hours exposure; details: 24-hour incubation, 16-18 hours recovery, concentration as Roridin A
A375 [3] = details: 5 minute exposure
[4] = tested on: intimal smooth muscle cells; assay: Intimal smooth muscle proliferation in traumatized and treated porcine arteries; details: control treatments; 5 weeks after trauma; scored on a scale from 1+ (minimal) to 4+ (maximal)
HT29 [5] = assay: MTT metabolic activity 48 hours after 5 minute exposure; details: 48 hours recovery, conjugates: at the lower doses
A375 [6] = assay: as above; details: 48 hours recovery, conjugates: at the lower doses
BO54 = assay: as above; details: 48 hours recovery, conjugates: at the lower doses
[7] = tested on: BO54 arterial smooth muscle cells; details: 5 minute exposure
[8] = short-term (4 hour 3H-leucine directly after treatment)

## Roridin A
HT29 [1]; long-term (16-18 hours recovery period)
  protein synthesis: still manifest after the 16-18 hours recovery period
HT29 [1]; [8]
  protein synthesis: dose-response inhibition of cellular protein synthesis
HT29 [2]
  concentration at which inhibitory effects on metabolic activity were observed: > 10 ng/mL
A375 [3]; long-term (16-18 hour recovery period)
  protein synthesis: manifest even after a 16-18 hour recovery period
A375 [3]; [8]
  protein synthesis: non-specifically inhibitory to test cells
[4]
  INTIMAL SMC HYPERTROPHY* ave. (range): 4 (4)
HT29 [5]
  metabolic activity (MTT): non-specifically inhibitory to target and non-target cell types
A375 [6]
  metabolic activity (MTT): non-specifically inhibitory to target and non-target cell types
BO54
  metabolic activity (MTT): non-specifically inhibitory to target and non-target cell types
[7]; long-term, 50ng/ml
  protein synthesis: 98 % of control
[7]; long-term, 100ng/ml
  protein synthesis: 46 % of control
[7]; long-term, 200ng/ml
  protein synthesis: 27 % of control
[7]; short-term, 50ng/ml
  protein synthesis: 90 % of control
[7]; short-term, 100ng/ml
  protein synthesis: 66 % of control
[7]; short-term, 200ng/ml
  protein synthesis: 60 % of control
